In patent publication US20230233483A1, “COMPOUND AND METHOD FOR THE TREATMENT OF CORONAVIRUSES” (Apteeus, priority 2020, published 2023):

Assay: Cmax in human lung tissue of patients (literature)
Format: in vivo

## CC(C)(C)CC(C)(C)c1ccc(O)c(Cc2ccc(Cl)cc2Cl)c1 [clofoctol, 2-(2,4-Dichlorobenzyl)-4-(1,1,3,3-tetramethylbutyl)phenol]
EC95 about 21-25 µM vs Cmax about 250 µM
  EC95 times less than Cmax in human lung tissue: about 10 times
IC95 about 9-11 µM vs Cmax about 250 µM
  IC95 times less than Cmax in human lung tissue: about 25 times
